{"source": "ChEMBL document CHEMBL1629571", "about": "“High prevalence of plasmid-mediated quinolone resistance determinants qnr, aac(6')-Ib-cr, and qepA among ceftiofur-resistant Enterobacteriaceae isolates from companion and food-producing animals” (2009)", "key": {"[1]": {"tested_on": "Escherichia coli", "details": "J53"}, "[2]": {"tested_on": "Escherichia coli", "details": "J53", "remark": "listed apart in the source"}}}
{"sequence": "GENTAMICIN", "values": [{"measurement": "MIC", "setting": "[1]", "result": 0.5, "unit": "µg/mL"}, {"measurement": "MIC", "setting": "[2]", "result": 0.5, "unit": "µg/mL"}]}
